Results of unrelated studies side by side (data: NIAID ChemDB).

Shared fields: growth or infection tests; species: HIV-1; measure: inhibition

Conditions beyond the fields shown may differ between rows. Percent inhibition refers to the dose given; in toxicity tests it is the harm to the cells. Blank or dashed fields: not listed here.

compound | strain | tested at | method | cells | setting | value
Nc1ccccc1C(=O)N1CCN(C(=O)C(=O)c2c[nH]c3cccc(Cl)c23)CC1 |  | 10 µM | luciferase | HeLa + HELA CD4+/CCR5 |  | 75%
CCN1CC[C@H](O)[C@@H](O)C1 | BRU | 10 µg/mL | cytopathic effect | CEM + CEM-SS |  | 19.1%
COC(=O)[C@H](C)NC(=O)[C@]12CCC(C)(C)C[C@H]1C1=CC[C@@H]3[C@@]4(C)C[C@@H](O)[C@H](O)C(C)(C)[C@@H]4CC[C@@]3(C)[C@]1(C)CC2 | pNL4-3 | 10 µM | p24 / ELISA | MT-2 |  | 36.4%
Nc1cccc(C(=O)N2CCN(C(=O)C(=O)c3c[nH]c4cccc(Cl)c34)CC2)c1 |  | 10 µM | luciferase | HeLa + HELA CD4+/CCR5 |  | >98%
C=CCNC(=O)NC(=O)CSC1=NNC2(C(=O)N1)c1ccccc1-c1ccccc12 | RF | 63 µM | cytopathic effect / XTT | CEM |  | 15.14%
CC1(C)OC(=O)C2(C(=O)O1)[C@@H](c1ccccc1)CC(=O)C[C@H]2[C@H]1COC(C)(C)O1 | NL4-3 | 0.0001 µM | MTT | SupT1 |  | >40%
O=C1N=C2SC=C(NC(=S)Nc3ccccc3)N2NC12c1ccccc1-c1ccccc12 | RF | 20 µM | cytopathic effect / XTT | CEM |  | 36.63%
CC(=O)CCCCn1c(=O)c2c(ncn2C)n(C)c1=O |  | 25 µM | RT activity | PBMC |  | 25%
Cc1cn([C@H]2C=C[C@@H](COC(=O)[C@H](Cc3c[nH]c4ccccc34)NC(=O)[C@@H](N)CCC(=O)O)O2)c(=O)[nH]c1=O |  | 0.7 µg/mL | p24 | MT-4 |  | 100%
CC#C[C@]1(O)CC[C@H]2[C@@H]3CCC4=CC(=O)CCC4=C3[C@@H](c3ccc(N(C)C)cc3)C[C@@]21C | 89.6 | 10 µM | p24 / ELISA | PBMC |  | >95%
N[C@@H](CCC(=O)O)C(=O)N[C@@H](Cc1c[nH]c2ccccc12)C(=O)O |  | 50 µg/mL | p24 | MT-4 |  | 100%
O[C@H]1CCN(Cc2ccccc2)C[C@@H]1O | BRU | 10 µg/mL | cytopathic effect | CEM + CEM-SS |  | 84%
c1ccc2c(-c3ccc(-c4ccc(-c5ccc(-c6cccc7ccccc67)s5)c5ccccc45)s3)cccc2c1 | IIIB | 4 µM | p24 / ELISA / antigen | C8166 |  | 65.38%
O=C(C(=O)N1CCN(C(=O)c2ccccc2)CC1)c1c[nH]c2cc(Cl)c(Cl)cc12 |  | 10 µM | luciferase | HeLa + HELA CD4+/CCR5 |  | >98%
COc1cc(/C=N/N=C(\N)NO)c(Cl)cc1O.Cc1ccc(S(=O)(=O)O)cc1 | IIIB | 32 µg/mL | cytopathic effect | CEM |  | 23.8%
COC(=O)CNC(=O)[C@]12CCC(C)(C)C[C@H]1C1=CC[C@@H]3[C@@]4(C)C[C@@H](O)[C@H](O)C(C)(C)[C@@H]4CC[C@@]3(C)[C@]1(C)CC2 | pNL4-3 | 25 µM | p24 / ELISA | MT-2 |  | 43.7%
O=C(O)CSC1=NNC2(C(=O)N1)c1ccccc1-c1ccccc12 | RF | 63 µM | cytopathic effect / XTT | CEM |  | 21.96%
O=C(C(=O)N1CCN(C(=O)c2ccccc2)CC1)c1c[nH]c2ccc(Br)cc12 | BRU | 10 µM | RT activity | MT-2 |  | >98%
C[C@H](NC(=O)[C@]12CCC(C)(C)C[C@H]1C1=CC[C@@H]3[C@@]4(C)C[C@@H](O)[C@H](O)C(C)(C)[C@@H]4CC[C@@]3(C)[C@]1(C)CC2)C(=O)NCC(=O)O | pNL4-3 | 10 µM | p24 / ELISA | MT-2 |  | -34.5%
O=C1NC(=S)NNC12c1ccccc1-c1ccccc12 | RF | 200 µM | cytopathic effect / XTT | CEM |  | 12.89%
C=C(C)[C@@H]1CC[C@]2(C(=O)NCCCCCCCC(=O)N[C@@H](CC(C)C)[C@@H](O)CC(=O)O)CC[C@]3(C)[C@H](CC[C@@H]4[C@@]5(C)CC[C@H](O)C(C)(C)[C@@H]5CC[C@]43C)[C@@H]12 | LN7 | 10 µM | syncytia | HeLa P4 + HeLa |  | 28%
O[C@H]1CN(Cc2ccccc2)CC[C@@]1(O)c1ccccc1 | BRU | 100 µg/mL | cytopathic effect | CEM + CEM-SS |  | 42.3%
O=C(C(=O)N1CCN(C(=O)c2c(F)cccc2F)CC1)c1c[nH]c2ccccc12 | BRU | 10 µM | RT activity | MT-2 |  | 66.8%
CCCCN1CC[C@H](O)[C@@H](O)C1 | BRU | 10 µg/mL | cytopathic effect | CEM + CEM-SS |  | 15.3%
CC(C)[C@H](NC(=O)CCCCCNC(=O)[C@]12CCC(C)(C)C[C@H]1C1=CC[C@@H]3[C@@]4(C)C[C@@H](O)[C@H](O)C(C)(C)[C@@H]4CC[C@@]3(C)[C@]1(C)CC2)C(=O)O | pNL4-3 | 25 µM | p24 / ELISA | MT-2 |  | 3.5%
COc1ccc(/C=N/N=C(\N)NO)c(OC)c1.Cc1ccc(S(=O)(=O)O)cc1 | IIIB | 32 µg/mL | cytopathic effect | CEM |  | 39%
O=C(C(=O)N1CCN(C(=O)c2ccccc2)CC1)c1c[nH]c2cccc(Br)c12 |  | 10 µM | luciferase | HeLa + HELA CD4+/CCR5 |  | >98%
COc1ccc(/C=N/N=C(/N)NO)cc1OC | IIIB | 10 µg/mL | cytopathic effect | CEM |  | 33%
NC1=NNC2(C(N)=N1)c1ccccc1-c1ccccc12 | RF | 20 µM | cytopathic effect / XTT | CEM |  | 17.87%
N#CC1CCCN1C(=O)C(Cc1ccccc1)NC(=O)OCC1c2ccccc2-c2ccccc21 | IIIB | 12 µM | p24 | CEM |  | 17.1%
CCCN1CC[C@H](O)[C@@H](O)C1 | BRU | 10 µg/mL | cytopathic effect | CEM + CEM-SS |  | 10.3%
CC1CN(C(=O)c2ccccc2)C(C)CN1C(=O)C(=O)c1c[nH]c2cccc(F)c12 |  | 10 µM | luciferase | HeLa + HELA CD4+/CCR5 |  | 94%
CC1(C)[C@@H](O[C@H]2O[C@H](C(=O)O)[C@@H](O)[C@H](O)[C@H]2O[C@@H]2O[C@H](C(=O)O)[C@@H](O)[C@H](O)[C@H]2O)CC[C@]2(C)[C@H]3C(=O)C=C4[C@@H]5C[C@@](C)(C(=O)O)CC[C@]5(C)CC[C@@]4(C)[C@]3(C)CC[C@@H]12 | IIIB | 1200 µM | RT activity | MOLT-4 | 9 d | 78.5%
COC(=O)[C@@H](NC(=O)[C@]12CCC(C)(C)C[C@H]1C1=CC[C@@H]3[C@@]4(C)C[C@@H](O)[C@H](O)C(C)(C)[C@@H]4CC[C@@]3(C)[C@]1(C)CC2)C(C)C | pNL4-3 | 10 µM | p24 / ELISA | MT-2 |  | 28%
COc1cc(/C=N/N=C(\N)NO)ccc1O.Cc1ccc(S(=O)(=O)O)cc1 | IIIB | 10 µg/mL | cytopathic effect | CEM |  | 0%
Nc1ccn([C@H]2C=C[C@@H](CO)O2)c(=O)n1 | LAV | 1 µM | cytopathic effect / trypan blue | MT-2 |  | 99.5%

5 of the rows above, restated:

compound	strain	tested at	method	cells	setting	value
C=CCNC(=O)NC(=O)CSC1=NNC2(C(=O)N1)c1ccccc1-c1ccccc12	RF	63 µM	cytopathic effect / XTT	CEM		15.14%
CC1CN(C(=O)c2ccccc2)C(C)CN1C(=O)C(=O)c1c[nH]c2cccc(F)c12		10 µM	luciferase	HeLa + HELA CD4+/CCR5		94%
COC(=O)[C@H](C)NC(=O)[C@]12CCC(C)(C)C[C@H]1C1=CC[C@@H]3[C@@]4(C)C[C@@H](O)[C@H](O)C(C)(C)[C@@H]4CC[C@@]3(C)[C@]1(C)CC2	pNL4-3	10 µM	p24 / ELISA	MT-2		36.4%
O[C@H]1CCN(Cc2ccccc2)C[C@@H]1O	BRU	10 µg/mL	cytopathic effect	CEM + CEM-SS		84%
CC#C[C@]1(O)CC[C@H]2[C@@H]3CCC4=CC(=O)CCC4=C3[C@@H](c3ccc(N(C)C)cc3)C[C@@]21C	89.6	10 µM	p24 / ELISA	PBMC		>95%